A mixed list of measured activities; the numbers were collected in NIAID ChemDB.

Common to all: growth or infection tests; agent: Mycobacterium avium

MIC50, MIC90 and the like: level of inhibition, or share of isolates inhibited. Conditions beyond the fields shown may differ between rows. Blank or dashed fields: not listed here.

SMILES	method	conditions	strain or isolate	measure	result
CN[C@@H]1[C@H](O[C@H]2[C@H](O[C@H]3[C@H](O)[C@@H](O)[C@H](N=C(N)N)[C@@H](O)[C@@H]3N=C(N)N)O[C@@H](C)[C@]2(O)C=O)O[C@@H](CO)[C@H](O)[C@H]1O	-	-	3090	MIC	8 µg/mL
Nc1ccc(C(=O)O)c(O)c1	-	-	ATCC 25291	Mean MIC	80 µg/mL
CC[C@H]1OC(=O)[C@H](C)[C@@H](O[C@H]2C[C@@](C)(OC)[C@@H](O)[C@H](C)O2)[C@H](C)[C@@H](O[C@@H]2O[C@H](C)C[C@H](N(C)C)[C@H]2O)[C@](C)(O)C[C@@H](C)CN(C)[C@H](C)[C@@H](O)[C@]1(C)O	-	-	3011-C clarithromycin-resistant	MIC	>512 µg/mL
c1cncc(CSc2ncn[nH]2)c1	-	-	MY330/88	MIC	1000 µM
O=C1c2ccccc2OP(=O)(c2ccccc2)N1c1ccccc1	-	7 d	MY330/88	MIC	>500 µM
CC(=O)O[C@H]1C[C@@]2(C)[C@@H](C[C@@H](O)[C@H]3[C@@]4(C)CC[C@@H](O)[C@@H](C)[C@@H]4CC[C@@]32C)/C1=C(\CCC=C(C)C)C(=O)O	-	-	ATCC 25291	Median MIC	24 µg/mL
Cc1ccc(NC(=O)c2ccccc2O)cc1	-	-	MY330/88	MIC	62 µM
CN(C)c1ccc(O)c2c1C[C@H]1C[C@H]3[C@H](N(C)C)C(=O)C(C(N)=O)=C(O)[C@@]3(O)C(=O)C1=C2O	-	-	ATCC 25291	Mean MIC	28 µg/mL
CC[C@H]1OC(=O)[C@H](C)[C@@H](O[C@H]2C[C@@](C)(OC)[C@@H](O)[C@H](C)O2)[C@H](C)[C@@H](O[C@@H]2O[C@H](C)C[C@H](N(C)C)[C@H]2O)[C@](C)(OC)C[C@@H](C)C(=O)[C@H](C)[C@@H](O)[C@]1(C)O	-	-	LR114F	MIC	2 µg/mL
Cc1c(F)c(N2CCNC(C)C2)c(C(F)(F)F)c2c1c(=O)c(C(=O)O)cn2C1CC1	-	-	PI4/44	MIC	16 µg/mL
CC[C@H]1OC(=O)[C@H](C)[C@@H](O[C@H]2C[C@@](C)(OC)[C@@H](O)[C@H](C)O2)[C@H](C)[C@@H](O[C@@H]2O[C@H](C)C[C@H](N(C)C)[C@H]2O)[C@](C)(OC)C[C@@H](C)C(=O)[C@H](C)[C@@H](O)[C@]1(C)O	-	-	1435-C clarithromycin-resistant	MIC	>512 µg/mL
CCn1cc(C(=O)O)c(=O)c2cc(F)c(N3CCC(CNCCO)C3)c(F)c21	-	-	PI2/8	MIC	0.25 µg/mL
CC[C@H]1OC(=O)[C@H](C)[C@@H](O[C@H]2C[C@@](C)(OC)[C@@H](O)[C@H](C)O2)[C@H](C)[C@@H](O[C@@H]2O[C@H](C)C[C@H](N(C)C)[C@H]2O)[C@](C)(OC)C[C@@H](C)C(=O)[C@H](C)[C@@H](O)[C@]1(C)O	broth dilution / radiometric	pH 7.4	1017	MIC	1 µg/mL
CO[C@H]1/C=C/O[C@@]2(C)Oc3c(C)c(O)c4c(O)c(c(/C=N/N5CCN(C)CC5)c(O)c4c3C2=O)NC(=O)/C(C)=C\C=C\[C@H](C)[C@H](O)[C@@H](C)[C@@H](O)[C@@H](C)[C@H](OC(C)=O)[C@@H]1C	-	-	Isolate 90-1816	MIC	2.5 µg/mL
Cc1cc(-c2cc3c(cc2F)c(=O)c(C(=O)O)cn3C2CC2)cc(C)n1	-	-	55 strains	MIC50	1.8 µg/mL
CO[C@H]1/C=C/O[C@@]2(C)Oc3c(C)c(O)c4c(=O)c(c5oc6cc(N7CCN(CC(C)C)CC7)cc(=O)c6nc5c4c3=C2O)NC(=O)/C(C)=C\C=C\[C@H](C)[C@H](O)[C@@H](C)[C@@H](O)[C@@H](C)[C@H](OC(C)=O)[C@@H]1C	-	-	3354	MIC	0.016 µg/mL
NC(=S)c1cc(SCc2cccnc2)ccn1	-	-	MY330/88	MIC	>32 µM
O=C(Nc1ccc(Cl)cc1)c1cc(Cl)ccc1OP(=O)(OCc1ccccc1)OCc1ccccc1	-	7 d	MY330/88	MIC	32 µM
CCn1cc(C(=O)O)c(=O)c2cc(F)c(N3CCN(C)CC3)cc21	-	-	13 strains	MIC50	>32 µg/mL
O=C(Nc1ccc(C(F)(F)F)cc1)c1cc(Br)ccc1OP(=O)(Oc1ccccc1)Oc1ccccc1	-	14 d	MY330/88	MIC	8 µM
COc1ccc(-n2c(=O)[nH]c3ccccc3c2=O)cc1	-	-	MY330/88	MIC	>500 µM
O=C(O)c1cn(C2CC2)c2c(F)c(N3CCN4CCC3C4)c(F)cc2c1=O	-	-	RG1	MIC	0.5 µg/mL
O=C(Nc1ccccc1)c1ccccc1OP(=O)(OCc1ccccc1)OCc1ccccc1	-	7 d	MY330/88	MIC	500 µM
O=C(O)c1cn(C2CC2)c2c(F)c(N3CCN4CCC3C4)c(F)cc2c1=O	-	-	14 strains	MIC90	4 µg/mL
CCc1cc(C(N)=S)ccn1	-	-	3011-C clarithromycin-resistant	MIC	>8 µg/mL
Nc1ccccc1C(=O)Nc1ccccc1	-	-	MY330/88	MIC	500 µM
Cc1ccc2nc(SCc3cccnc3)[nH]c2c1	-	-	MY330/88	MIC	250 µM
CCN(CC)c1nc2c(s1)c1c(O)c3c(O)c(C)c4c(c32)C(=O)[C@@](C)(O/C=C/[C@H](OC)[C@@H](C)[C@@H](OC(C)=O)[C@H](C)[C@H](O)[C@H](C)[C@@H](O)[C@@H](C)/C=C/C=C(/C)C(=O)N1)O4	-	-	50 strains	MIC90	0.94 µg/mL
O=C(Nc1ccccc1)c1ccccc1OP(=O)(Oc1ccccc1)Oc1ccccc1	-	14 d	MY330/88	MIC	125 µM
Cc1ccc2nc(SCc3cccc4ccccc34)[nH]c2c1	-	-	MY330/88	MIC	62.5 µM
CCn1cc(C(=O)O)c(=O)c2cc(F)c(N3CCS(=O)CC3)c(F)c21	-	-	PI4/44	MIC	16 µg/mL
c1ccc2oc(SCc3ccncc3)nc2c1	-	-	MY330/88	MIC	125 µM
O=C(Nc1ccc(C(F)(F)F)cc1)c1cc(Br)ccc1OP(=O)(OCc1ccccc1)OCc1ccccc1	-	14 d	MY330/88	MIC	62.5 µM
CN(C)c1ccc(NC(=O)c2ccccc2O)cc1	-	-	MY330/88	MIC	250 µM
CC1CN(c2c(F)c(N)c3c(=O)c(C(=O)O)cn(C4CC4)c3c2F)CCN1C	-	-	SMD	MIC	0.5 µg/mL
CO[C@H]1/C=C/O[C@@]2(C)Oc3c(C)c(O)c4c(O)c(c(/C=N/N5CCN(C)CC5)c(O)c4c3C2=O)NC(=O)/C(C)=C\C=C\[C@H](C)[C@H](O)[C@@H](C)[C@@H](O)[C@@H](C)[C@H](OC(C)=O)[C@@H]1C	-	-	6-12	MIC	5 µg/mL
CN[C@@H]1[C@H](O[C@H]2[C@H](O[C@H]3[C@H](O)[C@@H](O)[C@H](N=C(N)N)[C@@H](O)[C@@H]3N=C(N)N)O[C@@H](C)[C@]2(O)C=O)O[C@@H](CO)[C@H](O)[C@H]1O	-	-	ATCC 25291	Mean MIC	1.25 µg/mL

5 of the rows above, restated:

{"SMILES": "CN(C)c1ccc(NC(=O)c2ccccc2O)cc1", "strain or isolate": "MY330/88", "measure": "MIC", "result": "250 µM"}
{"SMILES": "CCn1cc(C(=O)O)c(=O)c2cc(F)c(N3CCN(C)CC3)cc21", "strain or isolate": "13 strains", "measure": "MIC50", "result": ">32 µg/mL"}
{"SMILES": "CCN(CC)c1nc2c(s1)c1c(O)c3c(O)c(C)c4c(c32)C(=O)[C@@](C)(O/C=C/[C@H](OC)[C@@H](C)[C@@H](OC(C)=O)[C@H](C)[C@H](O)[C@H](C)[C@@H](O)[C@@H](C)/C=C/C=C(/C)C(=O)N1)O4", "strain or isolate": "50 strains", "measure": "MIC90", "result": "0.94 µg/mL"}
{"SMILES": "NC(=S)c1cc(SCc2cccnc2)ccn1", "strain or isolate": "MY330/88", "measure": "MIC", "result": ">32 µM"}
{"SMILES": "CC[C@H]1OC(=O)[C@H](C)[C@@H](O[C@H]2C[C@@](C)(OC)[C@@H](O)[C@H](C)O2)[C@H](C)[C@@H](O[C@@H]2O[C@H](C)C[C@H](N(C)C)[C@H]2O)[C@](C)(OC)C[C@@H](C)C(=O)[C@H](C)[C@@H](O)[C@]1(C)O", "strain or isolate": "1435-C clarithromycin-resistant", "measure": "MIC", "result": ">512 µg/mL"}